Record: PubChem BioAssay AID624099 (ICCB-Longwood, 2012)

- Test: 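Knock-downs relieving repression by E2 of an HPV18 LCR luciferase reporter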 (primary screen)
- Cell system: human C33A cervical carcinoma cells (HPV-negative) stably expressing BPV1 E2 and an HPV18 LCR luciferase reporter
- Knock-down reagent: siRNA pool against human genes, 40 nM
- Timing: 72 h
- Measurement: 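Per-well luciferase luminescence, z-scored on each plate against the plate mean and SD with control wells left out, then averaged across three replicate plates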
- Scale: mean z-score and z-score: higher = stronger reporter signal, weaker E2 silencing
- Rule for the call: 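Mean z ≥ 2 together with z ≥ 2 in two or more of the three replicates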
The whole screen tested about 21,000 reagents; shown is an unselected part. 497 of them (2.4%) count as active. 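Higher z means weaker E2 silencing; only reporter increases were scored, and knock-downs that hurt cell survival may mask genuine repressor factors.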 Reagent sequences are not shown.

gene | mean z-score | z-score, replicate A | z-score, replicate B | z-score, replicate C | Call
ACKR5 (atypical chemokine receptor 5) | 0.2 | 0.24 | -0.09 | 0.44 | inactive
CGN (cingulin) | 0.37 | 0.46 | 0.9 | -0.25 | inactive
FLVCR1 (FLVCR choline and heme transporter 1) | -0.99 | -0.75 | -1.17 | -1.03 | inactive
SQLE (squalene epoxidase) | 0.59 | 0.23 | -0.09 | 1.63 | inactive
LOC400647 (retired record) | 0.79 | 0.95 | 0.96 | 0.47 | inactive
LOC283155 (retired record) | 0.03 | -0.08 | 0.19 | -0.03 | inactive
KRTAP22-1 (keratin associated protein 22-1) | -0.84 | -0.54 | -1.07 | -0.91 | inactive
USHBP1 (USH1 protein network component harmonin binding protein 1) | 0.92 | 0.93 | 0.81 | 1.02 | inactive
ATP8B2 (ATPase phospholipid transporting 8B2) | 0.53 | 0.43 | 0.64 | 0.53 | inactive
EIF3FP2 | -0.81 | -0.72 | -0.99 | -0.71 | inactive
RNF20 (ring finger protein 20) | 0.45 | 0.34 | 0.85 | 0.16 | inactive
RMP64 (ribonuclease MRP subunit p64) | 0.13 | 0.35 | -0.14 | 0.17 | inactive
CCDC93 (CCC complex scaffolding subunit CCDC93) | 1.13 | 0.86 | 1.3 | 1.23 | inactive
RPS7 (ribosomal protein S7) | -1.88 | -1.97 | -1.97 | -1.71 | inactive
CCDC127 (coiled-coil domain containing 127) | 1.62 | 1.4 | 1.95 | 1.51 | inactive
CST1 (cystatin SN) | -1.48 | -1.31 | -1.52 | -1.62 | inactive
LOC401280 (retired record) | -0.5 | -0.63 | -0.4 | -0.48 | inactive
SNX24 (sorting nexin 24) | 1.81 | 1.79 | 1.74 | 1.9 | inactive
NFATC2IP (nuclear factor of activated T cells 2 interacting protein) | -2.03 | -2.34 | -1.67 | -2.09 | inactive
WARS1P1 (tryptophanyl-tRNA synthetase 1 pseudogene 1) | 1 | 1.32 | 0.72 | 0.96 | inactive
DNAJC1 (DnaJ heat shock protein family (Hsp40) member C1) | 1.75 | 1.69 | 1.45 | 2.11 | inactive
PLA2G4C (phospholipase A2 group IVC) | 1.88 | 2.2 | 2.1 | 1.32 | inactive
TRIB3 (tribbles pseudokinase 3) | 1.31 | 1.24 | 1.25 | 1.43 | inactive
TRAPPC6B (trafficking protein particle complex subunit 6B) | -0.61 | -0.46 | -0.67 | -0.7 | inactive
LOC285889 | -0.59 | -0.5 | -0.64 | -0.62 | inactive
ADAM11 (ADAM metallopeptidase domain 11) | -1.98 | -2.2 | -2.02 | -1.72 | inactive
SMARCA4 | -0.05 | -0.04 | -0.07 | -0.04 | inactive
FAM20A (FAM20A golgi associated secretory pathway pseudokinase) | 0.04 | -0.22 | -0.07 | 0.42 | inactive
CADM1 (cell adhesion molecule 1) | -0.82 | -0.9 | -0.91 | -0.65 | inactive
LINC00550 (long independently transcribed non-coding RNA 550) | -1.89 | -1.53 | -1.94 | -2.2 | inactive
METAP2 (methionyl aminopeptidase 2) | 0.19 | 0.25 | 0.43 | -0.11 | inactive
ART1 (ADP-ribosyltransferase 1) | 0.56 | 0.27 | 0.43 | 0.99 | inactive
TBX19 (T-box transcription factor 19) | 0.39 | 0.09 | 0.34 | 0.75 | inactive
HIGD1A (HIG1 hypoxia inducible domain family member 1A) | 1.17 | 2.04 | 0.56 | 0.91 | inactive

Laid out differently: 5 of the entries above
{"gene":"ATP8B2 (ATPase phospholipid transporting 8B2)","mean z-score":0.53,"z-score, replicate A":0.43,"z-score, replicate B":0.64,"z-score, replicate C":0.53,"Call":"inactive"}
{"gene":"EIF3FP2","mean z-score":-0.81,"z-score, replicate A":-0.72,"z-score, replicate B":-0.99,"z-score, replicate C":-0.71,"Call":"inactive"}
{"gene":"RNF20 (ring finger protein 20)","mean z-score":0.45,"z-score, replicate A":0.34,"z-score, replicate B":0.85,"z-score, replicate C":0.16,"Call":"inactive"}
{"gene":"RMP64 (ribonuclease MRP subunit p64)","mean z-score":0.13,"z-score, replicate A":0.35,"z-score, replicate B":-0.14,"z-score, replicate C":0.17,"Call":"inactive"}
{"gene":"CCDC93 (CCC complex scaffolding subunit CCDC93)","mean z-score":1.13,"z-score, replicate A":0.86,"z-score, replicate B":1.3,"z-score, replicate C":1.23,"Call":"inactive"}

More records follow.
gene | mean z-score | z-score, replicate A | z-score, replicate B | z-score, replicate C | Call
PPP3CA-DT (PPP3CA divergent transcript) | 0.41 | 0.59 | 0.24 | 0.41 | inactive
LIPH (lipase H) | 0.21 | 0.41 | 0.19 | 0.04 | inactive
LOC388972 (retired record) | -0.15 | -0.22 | -0.27 | 0.03 | inactive
PAXIP1 (PAX interacting protein 1) | 0.51 | 0.92 | 0.24 | 0.36 | inactive
CD300LD-AS1 (CD300LD antisense RNA 1) | 0.82 | 1.01 | 0.74 | 0.69 | inactive
MAPK7 (mitogen-activated protein kinase 7) | 1.35 | 1.74 | 1.01 | 1.29 | inactive
MED24 (mediator complex subunit 24) | -0.26 | 0.02 | -0.26 | -0.53 | inactive
ATAT1 (alpha tubulin acetyltransferase 1) | 1.01 | 1.08 | 1.33 | 0.62 | inactive
METTL2A (methyltransferase 2A, tRNA N3-cytidine) | 0.69 | 0.86 | 0.56 | 0.64 | inactive
COL9A1 (collagen type IX alpha 1 chain) | 0.19 | 0.03 | 0.26 | 0.28 | inactive
KCNA5 (potassium voltage-gated channel subfamily A member 5) | -0.69 | -0.78 | -0.75 | -0.54 | inactive
ZNF395 (zinc finger protein 395) | -0.19 | 0.03 | 0.02 | -0.63 | inactive
ADGRD1 (adhesion G protein-coupled receptor D1) | 0.13 | 0.67 | -0.06 | -0.22 | inactive
C3AR1 (complement C3a receptor 1) | -0.36 | -0.24 | -0.52 | -0.32 | inactive
ADH1C (alcohol dehydrogenase 1C (class I), gamma polypeptide) | 1.18 | 1.07 | 1.39 | 1.08 | inactive
MRPL42 (mitochondrial ribosomal protein L42) | -1.8 | -1.68 | -1.81 | -1.9 | inactive
PRSS21 (serine protease 21) | 0.53 | 0.44 | 0.32 | 0.82 | inactive
TNNI3 (troponin I3, cardiac type) | 1.38 | 0.86 | 1.54 | 1.73 | inactive
C1S (complement C1s) | 0.84 | 0.98 | 0.79 | 0.74 | inactive
SFTPA1 (surfactant protein A1) | 0.09 | 0.12 | 0.23 | -0.08 | inactive
SPEM2 (SPEM family member 2) | 0.3 | 0.48 | 0.33 | 0.09 | inactive
CCP110 (centriolar coiled-coil protein 110) | -1.26 | -1.33 | -1.42 | -1.04 | inactive
NKAIN1 (sodium/potassium transporting ATPase interacting 1) | -0.65 | -0.82 | -0.94 | -0.18 | inactive
ACOXL (acyl-CoA oxidase like) | 2.33 | 2.15 | 2.71 | 2.14 | active
CHD1 (chromodomain helicase DNA binding protein 1) | 1.96 | 1.64 | 2.19 | 2.05 | inactive
NLN (neurolysin) | 0.26 | 0.25 | 0.06 | 0.47 | inactive
PPIAP59 (peptidylprolyl isomerase A pseudogene 59) | 0.67 | 0.5 | 0.45 | 1.06 | inactive
YTHDC2 (YTH N6-methyladenosine RNA binding protein C2) | -0.12 | -0.38 | -0.08 | 0.09 | inactive
LYNX1 (Ly6/neurotoxin 1) | 0.68 | 0.67 | 0.66 | 0.73 | inactive
HSD17B11 (hydroxysteroid 17-beta dehydrogenase 11) | 0.83 | 0.77 | 0.65 | 1.07 | inactive
TMEM141 (transmembrane protein 141) | 2.66 | 2.58 | 2.62 | 2.78 | active
SHQ1 (SHQ1, H/ACA ribonucleoprotein assembly factor) | 0.65 | 0.34 | 0.42 | 1.21 | inactive
LRIT1 (leucine rich repeat, Ig-like and transmembrane domains 1) | 0.67 | 0.85 | 0.69 | 0.48 | inactive
SCUBE1 (signal peptide, CUB domain and EGF like domain containing 1) | 0.38 | 0.68 | 0.37 | 0.1 | inactive
CLDN8 (claudin 8) | -1.3 | -1.41 | -1.08 | -1.41 | inactive
STIM1 (stromal interaction molecule 1) | 0.41 | 0.41 | 0.41 | 0.42 | inactive
ZMAT2 (zinc finger matrin-type 2) | -0.03 | 0.32 | -0.52 | 0.12 | inactive
GPR19 (G protein-coupled receptor 19) | -0.34 | -0.43 | -0.22 | -0.37 | inactive
GPR158 (G protein-coupled receptor 158) | -0.36 | -0.47 | -0.57 | -0.03 | inactive
